Test results taken from patent US20220275059A1.

Biological target: recombinant soluble MERS-CoV S ectodomain (MERS-S^ecto) (MERS-CoV EMC isolate)
Assay: BLI, Table 1 'Binding kinetics of mAbs/MERS-S^ecto or DPP4/MERS-S^ecto' [A]

soluble human DPP4 (dipeptidyl peptidase 4) ectodomain (from UniProt P27487 39-766) (receptor)
Kd: 3.42 nM | koff: 4.86e-05 s⁻¹ | kon: 14200 M⁻¹ s⁻¹
